# Mutational interference map of HIV-1 RNA dimerization

RNA: 5' end of the HIV-1 NL4-3 genome, made in vitro. Positions 1-437 read:
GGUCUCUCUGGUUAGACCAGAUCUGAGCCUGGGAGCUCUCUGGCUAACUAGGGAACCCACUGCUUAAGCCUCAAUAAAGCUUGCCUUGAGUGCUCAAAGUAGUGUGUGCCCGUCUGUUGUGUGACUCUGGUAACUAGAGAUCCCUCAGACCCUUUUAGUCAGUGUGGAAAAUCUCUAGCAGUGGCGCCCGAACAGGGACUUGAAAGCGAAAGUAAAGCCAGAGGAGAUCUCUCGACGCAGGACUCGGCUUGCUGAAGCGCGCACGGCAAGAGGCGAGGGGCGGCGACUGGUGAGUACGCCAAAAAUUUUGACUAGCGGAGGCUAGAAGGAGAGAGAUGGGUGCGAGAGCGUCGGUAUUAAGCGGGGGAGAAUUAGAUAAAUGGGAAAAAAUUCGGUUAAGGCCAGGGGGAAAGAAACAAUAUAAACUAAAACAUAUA

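Mutant RNA libraries with 1G, 2G or 3G starts, with or without cap, were folded at 37 °C for 30 min. Monomer and dimer bands were cut from native gels after folding in high salt (300 mM KCl, 5 mM MgCl2) or low salt (40 mM KCl, 0.1 mM MgCl2). Kdimer compares mutation frequencies in monomer and dimer, corrected for sequencing errors.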

Scale: median log2 Kdimer over the changes at a position; positive = changes inhibit dimerization, negative = changes enhance it.
One numbering serves 1G, 2G and 3G.
A position is written with its base.

position	domain	1G uncapped high-salt	1G uncapped low-salt	2G capped high-salt	2G capped low-salt
A161	PBS	0.11	-0.04	0.10	-0.05
G162	PBS	0.11	-0.44	0.01	-0.47
U163	PBS	0.10	-0.05	0.15	-0.04
G164	PBS	-0.02	0.09	0.00	0.10
U165	PBS	0.11	-0.10	-0.01	-0.08
G166	PBS	0.15	0.03	-0.10	0.23
G167	PBS	0.36	0.15	0.08	0.47
A168	PBS	0.09	0.25	0.06	0.45
A169	PBS	0.01	0.06	0.12	0.02
A170	PBS	0.07	0.05	0.05	-0.07
A171	PBS	0.08	0.13	0.04	0.17
U172	PBS	0.28	0.46	0.05	0.36
C173	PBS	-0.02	-0.29	-0.14	-0.38
U174	PBS	0.10	-0.57	-0.41	-0.54
C175	PBS	0.00	-0.15	-0.26	-0.38
U176	PBS	0.27	0.17	0.10	0.00
A177	PBS	0.17	-0.60	-0.11	-0.47
G178	PBS	0.22	0.15	0.23	0.40
C179	PBS	-0.03	-0.29	-0.22	-0.50
A180	PBS	0.19	-0.11	0.07	-0.13
G181	PBS	-0.20	-0.69	-0.17	-0.62
U182	PBS	0.16	0.15	0.04	0.14
G183	PBS	0.23	-0.02	0.07	0.03
G184	PBS	0.37	0.36	0.17	0.24

2 of these entries, quoted again:

- G183 (domain PBS) -> 1G uncapped high-salt 0.23; 1G uncapped low-salt -0.02; 2G capped high-salt 0.07; 2G capped low-salt 0.03
- U182 (domain PBS) -> 1G uncapped high-salt 0.16; 1G uncapped low-salt 0.15; 2G capped high-salt 0.04; 2G capped low-salt 0.14

The measurements come from Ye et al. 2022 (doi:10.1038/s41594-022-00746-2).